Laboratory results as given in patent US20120035221A1, “Method of Fungal Pathogen Control in Grass or Turf” (priority 2004, published 2012).

System: grass
Assay: Grass pot trial, dry weight and visual vigor under powdery mildew (Example 3)
Type: in vivo
Details: 2 WAT harvest, versus untreated, in words
Text: Six-inch (15-cm) diameter pots were filled to the rim with ProMix® BX potting soil and leveled off. Grass seed (0.5 g) was distributed evenly over the whole mix surface. The seed was watered in very gently. The grass was fertilized once 17 days later with Peters 20-10-20 at 100 ppm. The first cut was done on 11 days later; the grass was allowed to re-grow and cut 26 days later. Cutting was done at 2 in. (5 cm) height, using a round plastic cylinder that fit over the pot. The cut was made with hedge sheers and finished with scissors. Treatments were applied one day later using a volume of 20 ml per pot, followed with 117 ml of water/pot. The grass clippings were harvested an.d dried for dry weight determination 2 weeks after treatment (“WAT”) and 4 WAT. The grass was rated visually for vigor 8 WAT, using a 1 to 5 scale, before harvesting at the soil line. Dry weight and vigor data were subjected to analysis of variance (Fisher's Protected LSD, P=0.05).
The grass had germinated well within 30 days. Powdery mildew was noticed on some plants at 43 days after seeding, and became widespread in the plot. The powdery mildew coating appeared to grow more densely on the untreated plants. […] The invasion of the powdery mildew prevented the assessment of imidacloprid in the absence of pest pressure but it was serendipitously discovered that imidacloprid could have an effect on disease resistance in turf.

With `O=[N+]([O-])NC1=NCCN1Cc1ccc(Cl)nc1` [imidacloprid] the “dry weights of grass clippings” value was “significantly improved in two of the imidacloprid treatments”.
